Measurements from patent US20120294879A1, “CONSENSUS SEQUENCE FOR INFLUENZA A VIRUS” (priority 2009, published 2012).

Target: HLA-DR2 (DRB1*1501), chimeric DRA1*0101:I-Eα and DRB1*1501:I-Eβ, as expressed in HLA-DR2 transgenic mice (human; mouse), Q8BHN5
Experiment: cell-based or functional assay

Binder LEVCFMYSDFHFINEQG (modifications not checked) [PA 42-58 peptide of influenza virus A/New York/348/2003 (H1N1)] has a lowest concentration of peptide giving positive ELISpot response of 1 µg/mL and an IFN-γ ELISpot at 10 µg/ml peptide, splenocytes of immunized HLA transgenic mice (scale: IFN-γ spot forming cells per million splenocytes) of 64.
